Measured values from several laboratories, pooled; numbers as filed in NIAID ChemDB.

Common to all: growth or infection tests; organism: HIV-1; method: cytopathic effect / MTT; measure: EC50

a–b is a range or a potency band. Conditions beyond the fields shown may differ between rows. ECn is the concentration giving n% inhibition of infection, replication or growth. An empty or dashed field is not shown.

structure | cell line | changes | strain or isolate | conditions | value
CC(C)CN(C[C@@H](O)[C@H](Cc1ccccc1)NC(=O)[C@H](C(C)C)N1CC(=O)N(Cc2ccccn2)C1=O)S(=O)(=O)c1ccc(/C=N/O)cc1 | MT-4 | - | - | - | 0.005 µM
CCc1c(Cc2cccc(Cc3nc(SC(C)CC)[nH]c(=O)c3CC)c2)nc(SC(C)CC)[nH]c1=O | MT-4 | RT-K103N Y181C | RT-K103N+Y181C NNRTI-resistant | - | >27 µM
Cc1cc(Br)ccc1C(=O)N[C@@H](Cc1ccccc1)[C@H](O)CN(CC(C)C)S(=O)(=O)c1ccc2nc(N)oc2c1 | MT-4 | - | LAI WT | - | 0.0079 µM
CCC(C)[C@@H](C(=O)N[C@@H](Cc1ccccc1)[C@H](O)CN(CC1CCCC1)S(=O)(=O)c1ccc(/C=N/O)cc1)N1CCN(Cc2cccc(COC)n2)C1=O | MT-4 | - | - | 50% human serum | 0.026 µM
CCNC(=O)c1cccn1S(=O)(=O)c1cc(Cl)ccc1N | MT-4 | - | IIIB | - | >200 µM
CCc1c(Cc2cccc(Cc3nc(SC)n(C)c(=O)c3CC)c2)nc(SC)n(C)c1=O | MT-4 | - | - | - | >100 µM
CCC(C)[C@@H](C(=O)N[C@@H](Cc1ccccc1)[C@H](O)CN(CC(C)C)S(=O)(=O)c1ccc(/C=N/O)cc1)N1CCN(Cc2cccc(COC)n2)C1=O | MT-4 | - | - | - | 0.003 µM
CN1c2ccccc2C2C1C=C(Cl)C(=O)N2c1ccc(C(=O)O)cc1 | MT-4 | - | LAI | - | 1–32 µM
CCc1c(CC2CCCc3ccccc32)n(COCC=C(C)C)c(=O)[nH]c1=O | MT-4 | - | IIIB | - | 4 µM
CCOC(=O)c1cnn2c1nnc1cc(Cl)ccc12 | MT-4 | - | IIIB | - | >192 µM
CCOCn1c(Cc2cccc(OCC3CO3)c2)c(CC)c(=O)[nH]c1=O | MT-4 | - | IIIB | - | 14 µM
CCC(C)[C@@H](C(=O)N[C@@H](Cc1ccccc1)[C@H](O)CN(CC(C)C)S(=O)(=O)c1ccc(/C=N/O)cc1)N1CC(=O)N(Cc2ccncc2)C1=O | MT-4 | - | - | - | 0.005 µM
CCn1cc(C(=O)O)c(=O)c2cc(F)c(N3CCN(c4ccccc4OC)CC3)c(OC(F)F)c21 | MOLT-4 | - | - | - | 0.11 µM
CC(C)c1c(C(=O)c2cc(Cl)cc(Cl)c2)n(Cc2ccncc2)c(=O)[nH]c1=O | MT-4 | - | - | - | 0.003 µg/mL
C[C@]12CCC3C(CC[C@H]4C[C@@H](CC=C(c5cc(Cl)c(O)c(C(=O)O)c5)c5cc(Cl)c(O)c(C(=O)O)c5)CC[C@]34C)C1CC[C@@H]2CC=C(c1cc(Cl)c(O)c(C(=O)O)c1)c1cc(Cl)c(O)c(C(=O)O)c1 | CEM + CEM-SS | - | RF | - | 12 µM
CN1c2ccccc2C2C1C=C(C#N)C(=O)N2c1ccc(-c2ccco2)cc1 | MT-4 | - | LAI | - | 1–32 µM
CCc1c(C(=O)c2cc(F)cc(F)c2)n(Cc2cccnc2)c(=O)[nH]c1=O | MT-4 | - | - | - | 0.112 µg/mL
Cc1cccc(Nn2cnc(C)c2C)c1 | MT-4 | - | NL4-3 | - | >312 µM
CCOCn1c(Cc2ccccc2)c(C(C)C)c(=O)[nH]c1=O | MT-4 | RT-Y181C | N119 RT-Y181C NNRTI-resistant | - | 44 µM
CN1c2ccccc2C2C1C=C(C#N)C(=O)N2c1ccc(-c2ccsc2)cc1 | MT-4 | - | LAI | - | >32 µM
NNC(=O)c1cccn1S(=O)(=O)c1cc(Cl)ccc1N | MT-4 | - | IIIB | - | >200 µM
O=C[C@H](OC(=O)c1cc(O)c(O)c(O)c1Oc1cc2c(c(O)c1O)-c1c3cc(c(O)c1O)Oc1c(cc(O)c(O)c1O)C(=O)O[C@@H](C=O)[C@@H](OC(=O)c1cc(O)c(O)c(O)c1)[C@@H]1OC(=O)c4cc(O)c(O)c(O)c4-c4c(cc(c(O)c4O)Oc4c(cc(O)c(O)c4O)C(=O)O[C@@H](C=O)[C@@H](OC(=O)c4cc(O)c(O)c(O)c4)[C@H](OC3=O)[C@H](O)COC2=O)C(=O)OC[C@H]1O)[C@@H](OC(=O)c1cc(O)c(O)c(O)c1)[C@@H]1OC(=O)c2cc(O)c(O)c(O)c2-c2c(cc(O)c(O)c2O)C(=O)OC[C@H]1O | MT-4 | - | IIIB | - | 20.2 µg/mL
Nc1ccc(Cl)cc1S(=O)(=O)n1cccc1C(=O)OC1CCCCC1 | MT-4 | - | IIIB | - | >200 µM
Cc1cc(Cl)cc(C(=O)c2c(C(C)C)c(=O)[nH]c(=O)n2Cc2ccnc(C)c2)c1 | MT-4 | - | - | - | 0.0027 µg/mL
CCOC(=O)c1cnn2c1n[n+]([O-])c1ccc(Cl)cc12 | MT-4 | - | IIIB | - | >13 µM
O=C1OC[C@H]2OC(OC(=O)c3cc(O)c(O)c(O)c3)C(OC(=O)c3cc(O)c(O)c(O)c3)C(OC(=O)c3cc(O)c(O)c(O)c3)[C@@H]2OC(=O)c2cc(O)c(O)c3c2C2C1=CC(=O)[C@@](O)(O3)C2(O)O | MT-4 | - | IIIB | - | >50 µg/mL
CC(=O)c1cc(-c2cccc([N+](=O)[O-])c2)n(-c2ccccc2)c1C | MT-4 | - | - | - | >300 µM
N#Cc1cnn2c1nnc1ccc(Cl)cc12 | MT-4 | - | IIIB | - | >16.7 µM
CCOC(=O)c1cc(-c2cccc(Br)c2)n(-c2cccc(OC)c2)c1C | MT-4 | - | - | - | >143 µM
COc1c(Cl)cc(C(=CCCCCN(C(=O)C=C(c2cc(Cl)c(OC)c(C(=O)O)c2)c2cc(Cl)c(OC)c(C(=O)O)c2)[C@H]2CC[C@]3(C)C4CC[C@@]5(C)C(CC[C@@H]5C(C)CCCC(C)C)C4CC[C@H]3C2)c2cc(Cl)c(OC)c(C(=O)O)c2)cc1C(=O)O | CEM + CEM-SS | - | IIIB | - | 9.9 µM
COC(=O)c1c(C)[nH]c(=S)n1Nc1cccc(Cl)c1 | MT-4 | - | NL4-3 | - | >190 µM
Cc1cc(F)cc(C(=O)c2c(C(C)C)c(=O)[nH]c(=O)n2Cc2ccnc(C)c2)c1 | MT-4 | - | - | - | 0.0024 µg/mL
O=C(O)c1cc(O)c(O)c(O)c1 | MT-4 | - | IIIB | - | >6.3 µg/mL
CCCCCCC(C)[C@H]1CCC2C3CC[C@H]4C[C@@H](CCC=C(c5cc(Cl)c(O)c(C(=O)O)c5)c5cc(Cl)c(O)c(C(=O)O)c5)CC[C@]4(C)C3CC[C@@]21C | CEM + CEM-SS | - | IIIB | - | 3 µM
C=CCCc1cccc(Cc2c(CC)c(=O)[nH]c(=O)n2COCC=C)c1 | MT-4 | - | IIIB | - | 0.2 µM
CCOCn1c(Cc2cccc(Cc3c(CC)c(=O)[nH]c(=O)n3COCC)c2)c(CC)c(=O)[nH]c1=O | MT-4 | - | - | - | 14 µM
CC(C)CN(C[C@@H](O)[C@H](Cc1ccccc1)NC(=O)OC1COC2OCCNC12)S(=O)(=O)c1ccc2nc(N)oc2c1 | MT-4 | - | LAI WT | - | 0.6761 µM
N#Cc1cnn2c1n[n+]([O-])c1ccc(Cl)cc12 | MT-4 | - | IIIB | - | >25 µM
C[C@]12CCC3C(CC[C@H]4C[C@@H](CCC=C(c5cc(Cl)c(O)c(C(=O)O)c5)c5cc(Cl)c(O)c(C(=O)O)c5)CC[C@]34C)C1CC[C@@H]2CCC=C(c1cc(Cl)c(O)c(C(=O)O)c1)c1cc(Cl)c(O)c(C(=O)O)c1 | MT-4 | - | IIIB | - | 20 µM
CCCCOC(=O)c1cccn1S(=O)(=O)c1cc(Cl)ccc1[N+](=O)[O-] | MT-4 | - | IIIB | - | >22 µM
CC(C)CN(C[C@@H](O)[C@H](Cc1ccccc1)NC(=O)OCc1cnco1)S(=O)(=O)c1ccc2nc(N)oc2c1 | MT-4 | - | LAI WT | - | 0.0072 µM
Cn1c2ccccc2c2c1cc(C#N)c(=O)n2-c1ccc([N+](=O)[O-])cc1 | MT-4 | RT-L100I K103N | C | - | 0.08 µM
[O-][n+]1nc2c(-c3ccc(F)cc3)cnn2c2ccccc21 | MT-4 | - | IIIB | - | >200 µM
C=CCOc1cccc(Cc2nc(SCC(C)C)nc(OCC(C)C)c2CC)c1 | MT-4 | - | RT-K103N Y181C Mutant NNRTI-resistant | - | >100 µM
CCC(C)[C@@H](C(=O)N[C@@H](Cc1ccccc1)[C@H](O)CN(CC(C)C)S(=O)(=O)c1ccc(/C=N/O)cc1)N1CCN(Cc2ccccn2)C1=O | MT-4 | - | - | 50% human serum | 0.016 µM
O=C(O)c1cc(O)c(O)c(Oc2c(C(=O)OC3C(OC(=O)c4cc(O)c(O)c(O)c4)OC4COC(=O)c5cc(O)c(O)c(O)c5-c5c(cc(O)c(O)c5O)C(=O)OC4C3OC(=O)c3cc(O)c(O)c(O)c3)cc(O)c(O)c2O)c1 | MT-4 | - | IIIB | - | >50 µg/mL
Cc1cc(C)cc(Nn2cnc(C)c2-c2ccccc2)c1 | MT-4 | - | IIIB | - | >20.44 µM
CCOCn1c(Cc2ccccc2)c(C(C)C)c(=O)[nH]c1=O | MT-4 | RT-K103N Y181C | RT-K103N+Y181C NNRTI-resistant | - | >100 µM
Cc1cc(Cl)cc(C(=O)c2c(C(C)C)c(=O)[nH]c(=O)n2Cc2cc(C)nc(C)c2)c1 | MT-4 | - | - | - | 0.0021 µg/mL
C=CCCc1cccc(Cc2c(CC)c(=O)[nH]c(=O)n2COCC)c1 | MT-4 | - | IIIB | - | 0.3 µM
[O-][n+]1nc2ccnn2c2cc(Cl)ccc21 | MT-4 | - | IIIB | - | >200 µM
C=CCCc1cccc(Cc2[nH]c(=O)[nH]c(=O)c2CC)c1 | MT-4 | - | RT-K103N Y181C Mutant NNRTI-resistant | - | >66 µM
c1ccc2c(c1)nnc1ccnn12 | MT-4 | - | IIIB | - | >200 µM
CC(=O)OCc1cc(Cn2c(C(=O)c3cc(C)cc(Cl)c3)c(C(C)C)c(=O)[nH]c2=O)cc(C)n1 | MT-4 | - | - | - | 0.0134 µg/mL
[O-][n+]1nc2c(Br)cnn2c2cc(Cl)ccc21 | MT-4 | - | IIIB | - | >200 µM
Cc1ncn(Nc2ccc(F)cc2)c1-c1ccccc1 | MT-4 | - | NL4-3 | - | >30.82 µM
Cc1cn([C@H]2C=C[C@@H](CO)O2)c(=O)[nH]c1=O | MT-4 | RT-K65R/T215Y | HXB2 | - | 0.48 µM
Oc1cc(O)c2c(c1)O[C@H](c1cc(O)c(O)c(O)c1)[C@H](O)C2 | MT-4 | - | IIIB | - | >25 µg/mL
CCOCn1c(Cc2cccc(OCC=NO)c2)c(CC)c(=O)[nH]c1=O | MT-4 | - | RT-Y181C Mutant NNRTI-resistant | - | 35 µM
Cc1cc(Cn2c(C(=O)c3cc(Cl)cc(Cl)c3)c(C(C)C)c(=O)[nH]c2=O)ccn1 | MT-4 | - | - | - | 0.003 µg/mL
CCOC(=O)c1cc(-c2cccc(OC)c2)n(-c2cccc(N)c2)c1C | MT-4 | - | - | - | >7.2 µM
COc1ccccc1N1CCN(c2c(F)cc3c(=O)c(C(=O)O)cn(C)c3c2CN(C)C)CC1 | MT-4 | - | - | - | 0.93 µM
CC(C)CN(C[C@@H](O)[C@H](Cc1ccccc1)NC(=O)OCc1cccnc1)S(=O)(=O)c1ccc2nc(N)oc2c1 | MT-4 | - | LAI WT | - | 0.0155 µM
CCOC(=O)c1cc(-c2cccc(OC)c2)n(-c2cccc(N=[N+]=[N-])c2)c1C | MT-4 | - | - | - | >6.4 µM
Cc1cccc(Nn2cnc(C)c2-c2ccccc2)c1 | MT-4 | RT-K103N Y181C | SO561945 (RT K103N Y181C) | - | 3.99 µM
O=c1oc2c(O)c(O)cc3c(=O)oc4c(O)c(O)cc1c4c23 | MT-4 | - | IIIB | - | >100 µg/mL
Cc1cccc(Nn2c(C)c(C)[nH]c2=S)c1 | MT-4 | - | IIIB | - | >360 µM
CCc1c(Sc2cc(C)cc(C)c2)n(Cc2ccncc2)c(=O)[nH]c1=O | MT-4 | - | - | - | 0.004 µg/mL

For reference, 5 entries again:

structure | cell line | changes | strain or isolate | conditions | value
Cc1cccc(Nn2cnc(C)c2C)c1 | MT-4 | - | NL4-3 | - | >312 µM
CCOC(=O)c1cnn2c1n[n+]([O-])c1ccc(Cl)cc12 | MT-4 | - | IIIB | - | >13 µM
NNC(=O)c1cccn1S(=O)(=O)c1cc(Cl)ccc1N | MT-4 | - | IIIB | - | >200 µM
CCOC(=O)c1cc(-c2cccc(Br)c2)n(-c2cccc(OC)c2)c1C | MT-4 | - | - | - | >143 µM
Nc1ccc(Cl)cc1S(=O)(=O)n1cccc1C(=O)OC1CCCCC1 | MT-4 | - | IIIB | - | >200 µM